# Like-named read-outs stand apart in the source and are kept apart here.
# Target: radiolabeled w.t. HIVYU2 gp120 binding to Cf2Th-CCR5 cells (Human immunodeficiency virus type 1 group M subtype B, UniProt P35961)
# Type: cell-based, HIV
SMILES,enhancement of gp120 binding to CCR5+ cells (in words),enhancement of gp120 binding to CCR5+ cells (in words) (w.t. gp120)
COc1ccnc2[nH]cc(C(=O)C(=O)N3CCN(C(=O)c4ccccc4)C[C@H]3C)c12 [BMS-806],did not enhance the binding,
CC1(C)CC(NC(=O)C(=O)Nc2ccc(Br)cc2)CC(C)(C)N1 [NBD-557],,comparably to NBD-556
